{"source": "paper PMC6534257", "about": "“Leishmania infantum arginase: biochemical characterization and inhibition by naturally occurring phenolic substances” (Journal of Enzyme Inhibition and Medicinal Chemistry, 2019)", "origin": "cited, not measured here", "system": "axenic amastigote forms of L. donovani", "design": "method as in PMID 16569852", "settings": "L. donovani axenic amastigotes vs L9 cells ref 36; cited from earlier work", "data": [{"smiles": "COc1cc(O)c2c(=O)c(O)c(-c3ccc(O)c(O)c3)oc2c1", "note": "[Rhamnetin, rhamnetin]", "values": [{"measurement": "SI (parasite versus myoblast lineage cells L9)", "result": "> 20"}]}]}
